Data source: PubChem BioAssay AID624099 (ICCB-Longwood, 2012)
Assay: 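Host factors E2 relies on to silence an HPV18 LCR reporter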 (primary screen). Cells: human C33A cervical carcinoma cells (HPV-negative) stably expressing BPV1 E2 and an HPV18 LCR luciferase reporter. Reagents: siRNA pool against human genes, 40 nM. Duration: 72 h. Read-out: 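Per-well luciferase luminescence, z-scored on each plate against the plate mean and SD with control wells left out, then averaged across three replicate plates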. Scale: mean z-score and z-score: higher = stronger reporter signal, weaker E2 silencing. Rule for the call: 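Mean z ≥ 2 together with z ≥ 2 in two or more of the three replicates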.
Shown is a random part of about 21,000 reagents tested. 497 of them (2.4%) count as active. 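Higher z means weaker E2 silencing; only reporter increases were scored, and knock-downs that hurt cell survival may mask genuine repressor factors.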

For BMP5 (bone morphogenetic protein 5), the values are mean z-score -0.53; z-score, replicate A = -0.28; z-score, replicate B = -0.49; z-score, replicate C = -0.82; inactive.
After knock-down of SELENOW (selenoprotein W) the results were mean z-score 0.91; z-score, replicate A = 0.6; z-score, replicate B = 1.03; z-score, replicate C = 1.11; inactive.
RGL3 (ral guanine nucleotide dissociation stimulator like 3) gave mean z-score -0.58; z-score, replicate A = -0.87; z-score, replicate B = -0.64; z-score, replicate C = -0.24; inactive.
Against ZNF106 (zinc finger protein 106), the entry reads mean z-score -0.64; z-score, replicate A = -0.56; z-score, replicate B = -0.71; z-score, replicate C = -0.66; inactive.
Against EWSAT1 (Ewing sarcoma associated transcript 1) the deposit lists mean z-score 1.19; z-score, replicate A = 1.18; z-score, replicate B = 1.28; z-score, replicate C = 1.11; inactive.
Depletion of PSMB8 (proteasome 20S subunit beta 8) resulted in: mean z-score 0.88; z-score, replicate A = 0.79; z-score, replicate B = 0.8; z-score, replicate C = 1.06; inactive.
With knock-down of CEP152 (centrosomal protein 152), the screen gave mean z-score -1.14; z-score, replicate A = -1.19; z-score, replicate B = -1.06; z-score, replicate C = -1.16; inactive.
With knock-down of MAGEE2 (MAGE family member E2), the record shows mean z-score -1.56; z-score, replicate A = -1.84; z-score, replicate B = -1.19; z-score, replicate C = -1.64; inactive.
After knock-down of STON2 (stonin 2) the results were mean z-score -1.56; z-score, replicate A = -1.87; z-score, replicate B = -1.63; z-score, replicate C = -1.19; inactive.
For LSM6, the entry reads mean z-score -0.93; z-score, replicate A = -1.13; z-score, replicate B = -0.8; z-score, replicate C = -0.86; inactive.
Depletion of INSL5 (insulin like 5) resulted in: mean z-score 1.19; z-score, replicate A = 0.78; z-score, replicate B = 1.22; z-score, replicate C = 1.55; inactive.
With knock-down of ZNF845 (zinc finger protein 845), the screen gave mean z-score -0.13; z-score, replicate A = 0.25; z-score, replicate B = -0.48; z-score, replicate C = -0.15; inactive.
Knock-down of STOML1 (stomatin like 1) came out at: mean z-score -1.14; z-score, replicate A = -1.13; z-score, replicate B = -1.26; z-score, replicate C = -1.02; inactive.
Against NDST4 (N-deacetylase and N-sulfotransferase 4), the values are mean z-score 0.69; z-score, replicate A = 0.16; z-score, replicate B = 0.94; z-score, replicate C = 0.96; inactive.

Ordered by “z-score, replicate B” (descending): some entries from above.
SELENOW (selenoprotein W) — mean z-score: 0.91; z-score, replicate A: 0.6; z-score, replicate B: 1.03; z-score, replicate C: 1.11; outcome: inactive
BMP5 (bone morphogenetic protein 5) — mean z-score: -0.53; z-score, replicate A: -0.28; z-score, replicate B: -0.49; z-score, replicate C: -0.82; outcome: inactive
